{"source": "patent US10358638B2", "about": "“Method of producing 1,5-pentadiamine using lysine decarboxylase mutant having improved thermal stability” (AJINOMOTO CO., INC., priority 2014, dated 2019)", "test": "Lysine decarboxylation reaction (1,5-PD production) in the presence of chelating agent", "design": "species or system Escherichia coli", "conditions": "0.1 mM iron sulfate, 37° C., 16 hours", "description": "In the same manner as in Example 4, microbial cells of E. coli JM109/pCadA234 (double mutant expressing CadA at high level) were cultured, the cultured medium was prepared, and after completing the cultivation, incubated at 60° C. for one hour. The activity after incubation was measured, and the cultured medium was diluted so that the enzyme activity became 380 units/mL. 30 mL of this cultured medium containing the enzyme was added to 270 mL of a reaction solution containing 250 g/L of lysine hydrochloride (Ajinomoto Co., Ltd.), 26.5 mg/L of pyridoxal phosphate, 27.8 mg/L (0.1 mM) of iron sulfate heptahydrate and 111.6 mg/L (0.3 mM) of disodium dihydrogen ethylenediaminetetraacetate (EDTA), and the mixture was reacted at 37° C. for 16 hours. No EDTA was added in a control reaction. The pH value was 5.3 when the reaction was started, and elevated with progress of the reaction, but was kept at 7.0 by adding 30% (v/v) sulfuric acid when the pH value reached 7.0.\nOn the other hand, when EDTA was added, the inhibition of the reaction is restored and lysine was completely consumed. When EDTA was added, 135 g/L of 1,5-PD was formed and lysine was converted at a yield of 98%. […]"}
{"molecule": "pCadA234: lysine decarboxylase (CadA) V3I/A590T double mutant (protein, UniProt P0A9H3 1-715, looked up, variant V3I A590T) Inducible lysine decarboxylase: MNIIAILNHMGVYFKEEPIRELHRALERLNFQIVYPNDRDDLLKLIENNARLCGVIFDWDKYNLELCEEISKMNENLPLYAFANTYSTLDVSLNDLRLQISFFEYALGAAEDIANKIKQTTDEYINTILPPLTKALFKYVREGKYTFCTPGHMGGTAFQKSPVGSLFYDFFGPNTMKSDISISVSELGSLLDHSGPHKEAEQYIARVFNADRSYMVTNGTSTANKIVGMYSAPAGSTILIDRNCHKSLTHLMMMSDVTPIYFRPTRNAYGILGGIPQSEFQHATIAKRVKETPNATWPVHAVITNSTYDGLLYNTDFIKKTLDVKSIHFDSAWVPYTNFSPIYEGKCGMSGGRVEGKVIYETQSTHKLLAAFSQASMIHVKGDVNEETFNEAYMMHTTTSPHYGIVASTETAAAMMKGNAGKRLINGSIERAIKFRKEIKRLRTESDGWFFDVWQPDHIDTTECWPLRSDSTWHGFKNIDNEHMYLDPIKVTLLTPGMEKDGTMSDFGIPASIVAKYLDEHGIVVEKTGPYNLLFLFSIGIDKTKALSLLRALTDFKRAFDLNLRVKNMLPSLYREDPEFYENMRIQELTQNIHKLIVHHNLPDLMYRAFEVLPTMVMTPYAAFQKELHGMTEEVYLDEMVGRINANMILPYPPGVPLVMPGEMITEESRPVLEFLQMLCEIGAHYPGFETDIHGAYRQADGRYTVKVLKEESKK", "values": [{"measurement": "1,5-PD formed", "setting": "0.3 mM EDTA added, 250 g/L lysine hydrochloride", "value": 135, "unit": "g/L"}, {"measurement": "concentration of 1,5-PD in the reaction solution", "setting": "EDTA not added", "value": 41.8, "unit": "g/L"}]}
